Tested on: honey bees
Test: Package bee colonies, brood production and food consumption
Format: in vivo, honey bee
Conditions: control bees remove all of 2000 ml
Procedure: Forty-two packages of honey bees (2 lbs.~907 g) are obtained from 22 colonies infested with Acarapis woodi. Infestations range from 60 to 100%. Each package is provided with a mated queen and 550 ml of treated or untreated 50% (wt/wt) sucrose syrup. All treated colonies receive syrup containing either 0.5 mg/ml (group B) or 1.0 mg/ml (group C) of 2-(2,4-dimethylphenylimino)-3-methyl-4-thiazoline hydrochloride. The control (group A) consists of 10 packages of bees and the treatment groups B and C of 16 packages each.
After installation on frames free of nectar and pollen, package colonies are examined at weekly intervals to determine food consumption, brood production and bee mortality. Random samples of ten bees/colony are examined on days 5, 12, 19, 26, 33 and 40. On day 0 and 5 bees are examined. Dissections and live mite determinations are made according to Eischen et al. (Am. Bee J. 127: 99-101, 1987).

Cc1ccc(N=c2sccn2C)c(C)c1.Cl [2-(2,4-dimethylphenylimino)-3-methyl-4-thiazoline hydrochloride]
syrup utilized/hoarded, average per colony (group B, 0.5 mg/ml): 654 mL
syrup utilized/hoarded, average per colony (group C, 1.0 mg/ml): 526 mL
